For seven compounds, inhibition results are on record in PubChem BioAssay AID372 (MTDP, 2006).

Each structure is given as a SMILES string. The entries are a selection whose mix differs from that of the whole data set. Activity calls are given as the source filed them. No stated cut-off is given here; in the data, active means inhibition above about 50%; inactive means the rest.

For the assay, the target named is Gag-Pol polyprotein (Human immunodeficiency virus type 1 group M subtype B (isolate HXB2)) (UniProt P04585). Kind of assay: RNase H inhibition, HIV 1 Gag Pol polyprotein, FRET biochemical assay, screening (AID 372). The settings on record: HIV-1 RT RNase H, FRET RNA/DNA substrate fluorescence; at 10 µM; active compounds read high.
The term inhibition denotes the share of the control response that was lost under treatment. Regarding `N#CC(C#N)=Cc1ccc2c(c1)OCO2`, the inhibition is inactive: 12%. As for `CCCN1CCC(Nc2cccc(F)c2)CC1`, the figure is inactive: 6%; as for `CCOC(=O)N1CCC(Nc2cccc(C)c2)CC1`, inactive: 8%; as for `N#CC(C#N)=Cc1cc2c(cc1[N+](=O)[O-])OCO2`, inactive: 0%. As for `CCOc1cc(C=C(C#N)C#N)ccc1O`, the figure is inactive: 11%; as for `CC1CN(CCc2ccccc2)C(C)CC1=O` (configuration not stated), inactive: 8%. As for `CCOP(=S)(CC(=O)N(CC)CC)OCC`, the figure is inactive: 0%.
